Sequence variants of PSTVd loop 27 after infection

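Three N. benthamiana plants were inoculated with the whole mutant pool. Samples came from the inoculated region at 5 days, the leaf margin at 10 and upper systemic leaves at 12.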

PSTVd intermediate strain, loop 27: wild type UUUUCA, pool pattern UNNNNA; 5' to 3', with the closing base pair.

Numbers give reads per thousand; 0 = not seen among the reads, higher = more abundant. Each site shows the three plants. "Pool" is the share in the plasmid pool used as inoculum, on the same scale. The inoculated region was read from the minus strand, the other sites from the plus strand. IR is the inoculated region, LM the leaf margin, Sys the systemic leaves.

sequence,pool,IR,LM,Sys
ACGGAA,0.0136,0 0 0,0 0 0,0 0 0
ACUGAA,0.0136,0 0 0,0 0 0,0 0 0
AGCCAA,0.0136,0 0 0,0 0 0,0 0 0
AUAUUA,0.0136,0 0 0,0 0 0,0 0 0
AUGGUA,0.0136,0.0176 0 0,0 0 0,0 0 0
AUUUCA,0.0272,0.0529 0.0818 0.0756,0.533 0.454 0.310,0.322 0.520 0.452
GAUCGA,0.0136,0 0 0,0 0 0,0 0 0
GCCAGA,0.0136,0 0 0,0 0 0,0 0 0
GUCGGA,0.0136,0 0 0,0 0 0,0 0 0
GUGAUA,0.272,0.0882 0.147 0.151,0.0333 0.0302 0,0 0.0153 0
GUUAGA,0.0136,0 0 0,0 0 0,0 0 0
GUUGCU,0.598,0.0529 0.0818 0.113,0.0333 0 0,0 0 0
UACAGA,2.81,3.00 2.96 2.85,0.200 0.242 0.594,0.0643 0.0306 0.275
UACCAC,0.435,0.406 0.393 0.359,0.100 0.0302 0,0.0161 0 0
UACCUA,1.82,1.13 1.29 1.04,0 0.363 0,0 0 0.0197
UACGCA,2.72,1.06 1.23 1.12,0 0.121 0.491,0.0161 0 0
UACGGA,1.81,0.882 1.19 0.756,0.133 0.0907 0,0 0 0.0197
UACUGA,5.98,6.42 6.68 6.48,0.766 0.151 0.155,0.0322 0.0153 0.0787
UAGAAA,2.61,4.59 4.14 5.10,1.03 0.363 0.594,0.0482 0.306 0.0787
UAGACA,1.02,1.01 1.05 1.02,0.0666 0.151 0,0.0161 0.0153 0.0393
UAGCAC,0.0136,0 0 0,0 0 0,0 0 0
UAGUGA,2.70,2.56 2.21 2.04,0.733 0.272 0.336,0.0482 0.0153 0.0393
UAUCAA,2.23,1.89 2.55 1.85,0.0666 0.212 0.0517,0 0 0.0197
UAUGGA,2.12,0.917 0.769 0.435,0.100 0.0907 0,0.0482 0 0.0787
UAUGUA,6.42,2.87 2.86 2.68,0.0666 0.151 0,0.0482 0.0611 0.0590
UAUUCA,2.74,5.96 4.11 6.18,2.67 1.39 0.749,0.675 1.05 0.708
UAUUCG,0.0136,0 0 0,0 0 0,0 0 0
UAUUUA,7.74,11.4 9.36 10.2,0.866 0.756 0.336,0.0804 0.153 0.138
UCAAAA,4.43,2.63 2.47 2.10,0.366 0.151 0.388,0.0161 0 0.0197
UCACAA,2.11,0.670 0.998 0.813,0.100 0.0302 0.129,0 0 0.0197
UCACCA,2.17,0.917 1.23 0.945,0.366 0.0605 0,0 0.0153 0.0197
UCCGGA,2.42,1.23 0.851 1.02,0.0333 0.0605 0,0 0.0306 0.0197
UCCUAC,0.136,0.0176 0 0,0 0 0,0 0 0
UCCUCA,0.530,1.15 1.54 0.832,0 0.0907 0.0517,0.386 0 0.0197
UCGAAA,4.32,2.42 3.01 2.91,1.00 0.0907 0.258,0.0161 0.199 0.0787
UCGGAA,4.29,2.66 3.11 2.57,0.167 0.816 0.258,0.0161 0.107 0.0984
UCUCAA,3.52,1.83 2.23 1.74,0.0333 0.0605 0,0.0161 0.0459 0.0787
UCUCUA,4.25,3.88 3.68 4.67,0.167 0.272 0.0517,0.0482 0.199 0.0393
UCUGUA,5.45,2.01 2.26 1.74,0.0666 0.272 0.0517,0.0161 0.122 0.0393
UGACUA,4.74,2.15 2.50 1.70,0.133 0.121 0.0517,0.0161 0.0153 0.0984
UGAUGA,5.41,2.77 3.55 3.16,0.267 0.635 0.129,0.0643 0.168 0.0590
UGCAAA,4.12,0.705 1.31 1.02,0.0333 0.151 0.853,0.0322 0.0306 0.0590
UGCGUA,4.03,1.38 1.69 1.32,0.366 0.121 0.0258,0.0322 0 0.0393
UGGAAA,3.12,2.15 2.39 2.15,0.400 0.665 0.0258,0.0322 0.0306 0.157
UGGCGA,3.06,0.864 1.33 1.06,0.0333 0.0907 0,0.0161 0.0153 0.0393
UGGUAA,6.06,6.00 5.32 5.39,1.23 0.484 0.258,0.531 0.0917 0.0590
UGGUGA,5.75,1.41 2.42 1.42,0.0666 0.181 0.543,0.0161 0.0306 0.216
UGUAUA,5.12,8.64 7.23 7.18,2.70 0.454 0.0775,0.0643 0.183 0.197
UGUCUA,5.64,6.79 7.05 8.30,3.50 0.605 0.103,0.0965 0.0153 0.118
UGUUGA,4.85,5.03 5.94 5.86,1.47 0.423 0.129,0.0322 0.107 0.0984
UUACAA,3.73,1.08 1.36 1.19,0.100 0.0907 0.491,0.0804 0.0917 0.0197
UUACCA,1.71,1.76 1.69 1.38,0.466 0.0907 0,0.0161 0 0.0197
UUACGA,3.16,1.23 1.06 0.775,0.0333 0.454 0.0258,0.0322 0.122 0.0197
UUACUA,7.58,11.5 12.0 12.8,1.70 0.544 0.0775,0.129 0.229 0.295
UUAGGA,5.76,1.57 1.78 1.32,0.267 0.121 0.181,0 0.0764 0.0393
UUAUAA,7.77,4.96 5.32 4.03,0.766 0.605 1.11,0.0965 0.214 0.256
UUAUUA,6.41,12.6 11.1 12.3,2.87 1.15 0.258,0.0965 0.183 0.177
UUCCCA,0.937,1.09 1.08 0.926,0.666 0.0907 0,0.0322 0 0
UUCCGA,0.747,0.388 0.507 0.548,0 0 0,0 0 0
UUGAUA,4.37,5.98 6.46 7.37,1.23 0.484 0.0258,0.193 0.260 0.118
UUGUGA,4.33,5.91 5.88 5.63,1.07 0.423 0.0517,0.0643 0.596 1.99
UUGUUA,8.68,21.5 21.3 23.3,6.93 4.66 1.76,0.917 158 2.91
UUUACA,0.136,0.141 0.213 0.113,0.866 0.726 0.388,0.482 0.718 0.374
UUUCAA,3.37,5.66 6.14 5.35,0.633 0.0907 0.155,0.113 0.0764 0.0393
UUUGCU,0.0272,0 0 0,0 0 0,0 0 0
UUUUCA,39.4,155 124 130,823 907 920,805 787 933
UUUUCG,0.0407,0.0882 0.0491 0.0756,0.433 1.24 1.27,0.273 1.80 4.96
UUUUCU,0.0951,0.0705 0.0982 0.0756,2.47 1.81 3.82,0.193 2.92 3.25

Extract of 9 entries:

sequence,pool,IR,LM,Sys
UAUUUA,7.74,11.4 9.36 10.2,0.866 0.756 0.336,0.0804 0.153 0.138
UAGACA,1.02,1.01 1.05 1.02,0.0666 0.151 0,0.0161 0.0153 0.0393
AGCCAA,0.0136,0 0 0,0 0 0,0 0 0
UGGAAA,3.12,2.15 2.39 2.15,0.400 0.665 0.0258,0.0322 0.0306 0.157
UUAUAA,7.77,4.96 5.32 4.03,0.766 0.605 1.11,0.0965 0.214 0.256
UGAUGA,5.41,2.77 3.55 3.16,0.267 0.635 0.129,0.0643 0.168 0.0590
UGACUA,4.74,2.15 2.50 1.70,0.133 0.121 0.0517,0.0161 0.0153 0.0984
UAUUCA,2.74,5.96 4.11 6.18,2.67 1.39 0.749,0.675 1.05 0.708
UACCAC,0.435,0.406 0.393 0.359,0.100 0.0302 0,0.0161 0 0

The authors trace changes outside the varied positions to PCR and sequencing errors or to mutation in the plant; presence does not show that a variant is infectious alone. Samples held 30,013 to 65,426 reads, so the smallest values rest on one or two reads. For reference, wild type rose from 39.4 per thousand in the pool to 155, 124, 130 (inoculated region), 823, 907, 920 (leaf margin) and 805, 787, 933 (systemic leaves).

Data from the supplement of Wu et al. 2024, doi:10.1371/journal.ppat.1012142.